In the test the test system is ten-member panel of human carcinomas. Description: Cell proliferation assay, summary across the panel. The test is classed as cell-based. To be noted: read-out: GI50 values; range across the ten-member panel.

The source of these data is patent publication US8552176B2 (priority 2010, dated 2013).

The structures appear in SMILES notation.

As a reminder, the GI50 is the concentration at which growth is held to half of that of the control. For `CONCCCCc1ccc(N(CCCl)CCCl)cc1`, the GI50 fell in the range of 1.1 to 4.4 µM.
